Values from PubChem BioAssay AID1259414 (Drosophila RNAi Screening Center, 2018).
Purpose: 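Fly genes that alter Wolbachia amount inside host cells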 (primary screen). System: Drosophila JW18 cells infected with Wolbachia. Knock-down reagent: long dsRNA against Drosophila genes, 0.25 µg dsRNA per well of a 384-well plate. Duration: 5 days. Conditions: cells persistently infected with Wolbachia before knock-down; no added drug. Detection: 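Imaged fluorescence in situ signal for Wolbachia 23S rRNA per DAPI-counted host cell, given as a robust z-score within each plate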. Direction: Wolbachia per cell robust z: higher = more Wolbachia per host cell than the plate typical. Hit rule: 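Active if absolute robust z reaches 1.5 in two or more of three replicates, leaving out multi- or no-target dsRNAs, genes unexpressed in JW18 and A1 wells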.
In all, the deposit lists about 24,000 reagents; this is an unselected part of those that have a named target and a result. Over the whole deposit, about 1,210 (5%) were called active. 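Inactive calls also include excluded dsRNAs with several or no targets, genes unexpressed in JW18, and well A1, regardless of score.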 Reagent sequences are not shown.

target gene	amplicon	Wolbachia per cell robust z, rep 1	Wolbachia per cell robust z, rep 2	Wolbachia per cell robust z, rep 3	activity call
CG33286	DRSC11691	0.48	-1.23	0.317	inactive
CG33286	DRSC26119	-1.34	-1.75	-0.763	inactive
Osi24	DRSC12275	0.331	-2.47	-6.79	inactive
Gcn2	DRSC16678	0.358	-0.748	-3.11	inactive
CG8157	DRSC07085	-1.02	-1.69	-0.697	inactive
CG8157	DRSC21595	-1.17	-1.99	-1.17	inactive
CG8157	DRSC25401	-0.127	-0.0825	0.133	inactive
CG34251	DRSC38836	0.437	0.0703	0.0658	inactive
Cys	DRSC16637	-0.573	0.00776	1.08	inactive
Cys	DRSC27796	-1.45	-0.455	-1.38	inactive
Gk2	DRSC08610	0.318	0.927	0.197	inactive
CG5255	DRSC15754	-5.16	0.527	-0.803	inactive
CG5255	DRSC24877	-1.03	0.522	-0.656	inactive
Clc	DRSC11116	-0.82	0.0965	-1.08	inactive
Clc	DRSC25617	1.18	3.95	-2.08	inactive
CG3857	DRSC18542	0.515	-6.37	-0.718	inactive
Osi17	DRSC12284	-5.69	1.49	1.13	inactive
CG13323	DRSC06360	0.123	0.286	0.932	inactive
udd	DRSC06720	-2.32	-0.368	-1.86	active
Cyp301a1	DRSC07365	-0.463	-0.221	0.182	inactive
CG33640	DRSC38916	-0.0899	-0.943	-0.228	inactive
mRpL22	DRSC19915	-0.151	-1.37	-4.29	inactive
mRpL22	DRSC26399	0.451	0.118	-0.163	inactive
Gpat4	DRSC04345	-0.84	-1.41	-0.622	inactive
IRSp53	DRSC10891	1.52	1.58	1.44	inactive
CG14380	DRSC14840	1.52	0.348	-0.437	inactive
CG12917	DRSC06231	0.315	-0.255	-0.702	inactive
CG3226	DRSC18296	-0.492	-0.0534	-0.255	inactive
